Laboratory results from patent US20210292393A1 (published 2021).
Where a chain is given by its changes, count along the chain named. Where two headings read alike, the source gives them in different places.

Legend:
SARS-CoV spike protein [1] = biological target: T1, SARS-CoV spike protein (SARS-CoV, UniProt P59594 14-1190); assay: multiplexed bead assay, flow cytometry
SARS-CoV spike protein [2] = biological target: T1, SARS-CoV spike protein; assay: multiplexed bead assay, flow cytometry; remark: listed apart in the source
[3] = biological target: T2, SARS-CoV spike protein (full-length trimeric, on beads) (SARS-CoV, UniProt P59594 14-1190); assay: multiplexed bead assay, flow cytometry
[4] = biological target: T2, SARS-CoV spike protein (full-length …); assay: multiplexed bead assay, flow cytometry; remark: listed apart in the source
[5] = biological target: T2, SARS-CoV spike protein (full-length …); assay: multiplexed bead assay, flow cytometry; remark: listed apart in the source
[6] = biological target: T2, SARS-CoV spike protein (full-length …); assay: multiplexed bead assay, flow cytometry; remark: listed apart in the source
[7] = biological target: T2, SARS-CoV spike protein (full-length …); assay: multiplexed bead assay, flow cytometry; remark: listed apart in the source
[8] = biological target: T3, SARS-CoV spike protein (full-length trimeric, conjugated to optically encoded beads) (SARS-CoV, UniProt P59594 14-1190); assay: multiplexed bead assay, flow cytometry, SARS-CoV spike on beads
[9] = biological target: T3, SARS-CoV spike protein (full-length …); assay: as above; remark: listed apart in the source
[10] = biological target: T4, full-length trimeric SARS-CoV spike protein (SARS-CoV, UniProt P59594 14-1190); assay: multiplexed bead assay, flow cytometry
[11] = biological target: T4, full-length trimeric SARS-CoV spike …; assay: multiplexed bead assay, flow cytometry; remark: listed apart in the source
[12] = biological target: T3, SARS-CoV spike protein (full-length …); assay: multiplexed bead assay, flow cytometry, SARS-CoV spike on beads; remark: listed apart in the source
[13] = biological target: T3, SARS-CoV spike protein (full-length …); assay: as above; remark: listed apart in the source
[14] = biological target: T5, SARS-CoV spike protein (full length spike, trimeric, conjugated to beads) (SARS-CoV, UniProt P59594 14-1190); assay: multiplexed bead assay, flow cytometry
[15] = biological target: T5, SARS-CoV spike protein (full length …); assay: multiplexed bead assay, flow cytometry; remark: listed apart in the source

B1: antibody 338 (antibody, V domains shown)
VH: QVQLQESGPGLVKPSETLSLTCAVSGYSISSDYYWGWIRQPPGKGLEWIGSIYHSGSTYYNPSLKSRVTISIDTSKNQFSLKLSSVTAADTAVYYCARDPGNYDILTGIFDYWGQGTLVTVSS
VL: QSALTQPASVSGSPGQSITISCTGTSSDVGVYNYVSWYQQHPGKAPKLMIYDVTNRPSGVSNRFSGSKSGNTASLTISGLQAEDEADYYCSSYTSSSTLAVYVFGTGTKVTVL
SARS-CoV spike protein [1]
  median fluorescence intensity, fold over isotype control: 36.6 fold over isotype
SARS-CoV spike protein [2]
  median fluorescence intensity, fold over isotype control: 84.8 fold over isotype

B2: antibody 532 (antibody, V domains shown)
VH: EVQLVESGGGLVQPGGSLRLSCAASGIIVSSNYMSWVRQAPGKGLEWVSVIYSGGSTYYADSVKGRFTISRDNSKNTLYLQMNSLRAEDTAVYYCAREGLVGATLAFDYWGQGTLVTVSS
VL: not shown
[3]
  bead binding signal, fold over isotype control: 1 fold over isotype
[4]
  bead binding signal, fold over isotype control: 1.03 fold over isotype
[5]
  bead binding signal, fold over isotype control: 0.82 fold over isotype
[6]
  bead binding signal, fold over isotype control: 0.82 fold over isotype
[7]
  bead binding signal, fold over isotype control: 0.8 fold over isotype

B3: antibody 570 (antibody, V domains shown)
VH: QVQLQESGPGLVKPSQTLSLTCTVSGGSISSGSYYWSWIRQPAGKGLEWIGRIYTSGSTNYNPSLKSRVTISVDTSKNQFSLKLSSVTAADTAVYYCAREGQWLYRFDYWGQGTLVTVSS
VL: not shown
[8]
  fold over isotype control (median fluorescence intensity): 2.42 fold over isotype
[9]
  fold over isotype control (median fluorescence intensity): 6.92 fold over isotype

B4: antibody 291 (antibody, V domains shown)
VH: QVQLVESGGGVVQPGRSLRLSCAASGFTFSSYAMHWVRQAPGKGLEWVAVISYDGSNKYYADSVKGRFTISRDNSKNTLYLQMNSLRAEDTAVYYCARASGGSYFGGMDVWGQGTTVTVSS
VL: QSALTQPASVSGSPGQSITISCTGTSSDVGGYNYVSWYQQHPGKAPKLMIYEVSNRPSGVSNRFSGSKSGNTASLTISGLQAEDEADYYCSSYTSSSTLYVFGTGTKVTVL
[10]
  median fluorescence intensity, fold over isotype control: 31.3 fold over isotype
[11]
  median fluorescence intensity, fold over isotype control: 58.8 fold over isotype

B5: antibody 562 (antibody, V domains shown)
VH: B4 VH with G101S, S103G, F105Q, G107P, M108F, V110P, T116L
VL: QSALTQPASVSGSPGQSITISCTGTSSDVGGYNYVSWYQQHPGKAPKLMIYDVSNRPSGVSNRFSGSKSGNTASLTISGLQAEDEADYYCSSYTSSSTLLYVFGTGTKVTVLG
[8]
  fold over isotype control (median fluorescence intensity): 5.67 fold over isotype
[9]
  fold over isotype control (median fluorescence intensity): 17.9 fold over isotype
[12]
  fold over isotype control (median fluorescence intensity): 6.09 fold over isotype
[13]
  fold over isotype control (median fluorescence intensity): 2.57 fold over isotype

B6: antibody 518 (antibody, V domains shown)
VH: B4 VH with R98K, A99P, S100Y, G101S, F105W, G106D, G107A, M108F, V110I, T116M
VL: not shown
[3]
  bead binding signal, fold over isotype control: 40.1 fold over isotype
[4]
  bead binding signal, fold over isotype control: 90.2 fold over isotype
[5]
  bead binding signal, fold over isotype control: 7.54 fold over isotype
[6]
  bead binding signal, fold over isotype control: 38.8 fold over isotype
[7]
  bead binding signal, fold over isotype control: 15.3 fold over isotype

B7: antibody 520 (antibody, V domains shown)
VH: QVQLVESGGGVVQPGRSLRLSCAASGFTFSSYAMHWGRQAPGKGLEWVAVISYDGSNKYYADSVKGRFTISRDNSKNTLYLQMNSLRAEDTAVYYCARDGGSGWLLVGNWFDPWGQGTLVTVSS
VL: B4 VL with E52D, S97I
[3]
  bead binding signal, fold over isotype control: 10.7 fold over isotype
[4]
  bead binding signal, fold over isotype control: 17.7 fold over isotype

B8: antibody 554 (antibody, V domains shown)
VH: QVQLVESGGGVVQPGRSLRLSCAASGFTFSSYAMHWVRQAPGKGLEWVAVISYDGSNKYYADSVKGRFTISRDNSKNTLYLQMNSLRAEDTAVYYCARPQGGNYYYYGMDVWGQGTTVTVSS
VL: DIQMTQSPSSVSASVGDRVTITCRASQGISSWLAWYQQKPGKAPKLLIYAASSLQSGVPSRFSGSGSGTDFTLTISSLQPEDFATYYCQQANSFPLTFGGGTKVEIK
[8]
  fold over isotype control (median fluorescence intensity): 8.45 fold over isotype
[9]
  fold over isotype control (median fluorescence intensity): 28 fold over isotype

B9: antibody 568 (antibody, V domains shown)
VH: EVQLVESGGVVVQPGGSLRLSCAASGFTFDDYAMHWVRQAPGKGLEWVSLISWDGGSTYYADSVKGRFTISRDNSKNSLYLQMNSLRAEDTALYYCAKDIGYSSTTTEVGWFDPWGQGTLVTVSS
VL: B8 VL
[8]
  fold over isotype control (median fluorescence intensity): 1.07 fold over isotype
[9]
  fold over isotype control (median fluorescence intensity): 0.99 fold over isotype

B10: antibody 400 (antibody, V domains shown)
VH: QVQLVESGGGVVQPGRSLRLSCAASGFTFSSYGMHWVRQAPGKGLEWVAVISYDGSNKYYADSVKGRFTISRDNSKNTLYLQMNSLRAEDTAVYYCAKAIDILTGYGPGGMDVWGQGTTVTVSS
VL: QSVLTQPPSASGTPGQRVTISCSGSSSNIGSNYVYWYQQLPGTAPKLLIYRNNQRPSGVPDRFSGSKSGTSASLAISGLRSEDEADYYCAAWDDSLSGVVFGGGTKLTVL
[14]
  median fluorescence, fold over isotype control: 1 fold over isotype control
[15]
  median fluorescence, fold over isotype control: 0.91 fold over isotype control

B11: antibody 258 (antibody, V domains shown)
VH: QVQLQESGPGLVKPSETLSLTCTVSGGSISSYYWSWIRQPAGKGLEWIGRIYTSGSTNYNPSLKSRVTMSVDTSKNQFSLKLSSVTAADTAVYYCAAGYGSIDYWGQGTLVTVSS
VL: not shown
[10]
  median fluorescence intensity, fold over isotype control: 42.1 fold over isotype
[11]
  median fluorescence intensity, fold over isotype control: 84.8 fold over isotype

B12: antibody 308 (antibody, V domains shown)
VH: QLQLQESGPGLVKPSETLSLTCSVSGGSISSSSYHWGWIRQPPGKGLEWIGSIYYSGSTYYNPSLKSRVTISVDTSKNQFSLKLRSVTAADTAVYYCAGLRVVITFGGVIPKGGAFDIWGQGTMVTVSS
VL: QSALTQPASVSGSPGQSITISCTGTSSDVGGYNYVSWYQQHPGKAPKLMIYDVSNRPSGVSNRFSGSKSGNTASLTISGLQAEDEADYYCSSYTSSSTVVFGGGTKLTVL
[10]
  median fluorescence intensity, fold over isotype control: 20.8 fold over isotype
[11]
  median fluorescence intensity, fold over isotype control: 48.3 fold over isotype

B13: antibody 336 (antibody, V domains shown)
VH: QVQLVESGGGVVQPGRSLRLSCAASGFTFSSYAMHWVRQAPGKGLEWVAVISYDGSNKYYADSVKGRFTISRDNSKNTLYLQMNSLRAEDTAVYYCARAQTDYYDSSGWFDYWGQGTLVTVSS
VL: SYELTQPPSVSVSPGQTARITCSGDALPKQYAYWYQQKPGQAPVLVIYKDSERPSGIPERFSGSSSGTTVTLTISGVQAEDEADYYCQSADSSGTPHWVFGGGTKLTVL
SARS-CoV spike protein [1]
  median fluorescence intensity, fold over isotype control: 1.08 fold over isotype
SARS-CoV spike protein [2]
  median fluorescence intensity, fold over isotype control: 1.09 fold over isotype

B14: antibody 304 (antibody, V domains shown)
VH: EVQLLESGGGLVQPGGSLRLSCAASGFTFSTYAMSWVRQAPGKGLEWVSAISGSGGSTYYADSVKGRFTISRDNSKNTLYLQMNSLRAEDTAVYYCASGYSPDYWGQGTLVTVSS
VL: AIQMTQSPSSLSASVGDRVTITCRASQGIRNDLGWYQQKPGKAPKLLIYAASSLQSGVPSRFSGSGSGTDFTLTISSLQPEDFATYYCLQDYNYPRTFGQGTKVEIK
[10]
  median fluorescence intensity, fold over isotype control: 1.09 fold over isotype
[11]
  median fluorescence intensity, fold over isotype control: 1.13 fold over isotype
